Compound potency records, mixed from different reports. Data source: NIAID ChemDB in PubChem.

Shared fields: growth or infection tests; species: Staphylococcus aureus

Lines come from different laboratories, so protocols vary. Two numbers with a dash give a range or band. MIC50, MIC90 and the like: level of inhibition, or share of isolates inhibited.

CCN(CC)CCN(C)c1cc2c(cc1F)c(=O)c(C(=O)O)cn2C1CC1 ; strain or isolate: ATCC 6538P ; read-out: MIC ; value: >100 µg/mL
CCCCCCCCCCCC[N+](C)(C)CSCCC ; strain or isolate: ATCC33592 ; read-out: MBC ; value: 29.6 µM
CN1CCN(c2cc3c(cc2F)c(=O)c(C(=O)O)cn3C2CC2)CC1 ; strain or isolate: ATCC 5278 (methicillin-resistant) ; read-out: MIC ; value: 1.56 µg/mL
CNc1c(F)cc2c(=O)c(C(=O)O)cn(-c3cc(N)c(F)cc3F)c2c1C ; strain or isolate: 27 isolates ; read-out: MIC50 ; value: 0.008 µg/mL
CC(C)OCCCNc1cc2c(cc1F)c(=O)c(C(=O)O)cn2C1CC1 ; strain or isolate: ATCC 5278 (methicillin-resistant) ; read-out: MIC ; value: >100 µg/mL
CS(=O)(=O)N[C@H]1CCN(c2ccc(N3C[C@H](CNc4ccon4)OC3=O)cc2F)C1 ; strain or isolate: 122 (novobiocin-resistant) ; read-out: MIC ; value: 0.5 µg/mL
CCCCCCCC[N+](C)(C)COCC(CC)CCCC ; strain or isolate: ATCC 6538 ; read-out: MBC ; value: 7.4 µM
COC(=O)N1CCN(c2ccc(N3C[C@H](COc4ccon4)OC3=O)cc2F)CC1 ; strain or isolate: 078 (oxford) ; read-out: MIC ; value: 2 µg/mL
NC(=O)CNc1cc2c(cc1F)c(=O)c(C(=O)O)cn2C1CC1 ; strain or isolate: ATCC 6538P ; read-out: MIC ; value: >100 µg/mL
C[C@H]1COc2c(N3CCN(C)CC3)c(F)cc3c(=O)c(C(=O)O)cn1c23 ; strain or isolate: Methicillin-susceptible ; read-out: MIC90 ; value: 0.25–0.5 µg/mL
CCCCN(CCCC)CCNc1cc2c(cc1F)c(=O)c(C(=O)O)cn2C1CC1 ; strain or isolate: ATCC 5278 (methicillin-resistant) ; read-out: MIC ; value: >100 µg/mL
CCCCCCCCCCCC[N+](C)(C)COCCC(C)C ; strain or isolate: ATCC33592 ; read-out: MBC ; value: 7.14 µM
Cc1c(NCCCO)c(F)cc2c(=O)c(C(=O)O)cn(-c3cc(N)c(F)cc3F)c12 ; strain or isolate: 27 isolates (methicillin-resistant) ; read-out: MIC90 ; value: 0.015 µg/mL
CCCCCCCCCCCC[N+](C)(C)COCCCCCCC ; strain or isolate: ATCC 6538 ; read-out: MIC ; value: 1.32 µM
O=C(CO)N1CCN(c2ccc(N3C[C@H](CNc4ccon4)OC3=O)cc2F)CC1 ; strain or isolate: 078 (oxford) ; read-out: MIC ; value: 1 µg/mL
CCCCCCCCCCCC[N+](C)(C)COC1CCCC1 ; strain or isolate: ATCC 6538 ; read-out: MBC ; value: 14.4 µM
O=C1O[C@@H](COc2cnsn2)CN1c1ccc(-n2ccnc2)c(F)c1 ; strain or isolate: 004 (methicillin quinolone-resistant) ; read-out: MIC ; value: 0.5 µg/mL
CCCCCCCCCCCC[N+](C)(C)COCCCC ; strain or isolate: ATCC 6538 ; read-out: MBC ; value: 4.46 µM
CCNCCCN(CC)c1cc2c(cc1F)c(=O)c(C(=O)O)cn2C1CC1 ; strain or isolate: ATCC 5278 (methicillin-resistant) ; read-out: MIC ; value: 12.5 µg/mL

A second listing of 2 rows from above:

smiles	strain or isolate	read-out	value
CNc1c(F)cc2c(=O)c(C(=O)O)cn(-c3cc(N)c(F)cc3F)c2c1C	27 isolates	MIC50	0.008 µg/mL
CCN(CC)CCN(C)c1cc2c(cc1F)c(=O)c(C(=O)O)cn2C1CC1	ATCC 6538P	MIC	>100 µg/mL